Experimental data taken from publication PMC10331576, “Inhibition of SARS‐CoV‐2‐mediated thromboinflammation by CLEC2.Fc” (EMBO Molecular Medicine, 2023).

Target: COVID-2019-Spike-328-585 (RBD) (SARS-CoV-2)
Test: BLI; […] (HIS1K) […] (50 μM, 31 μM, and 8.8 μM); 30°C, PBS; 1:1 binding model; Octet HTX
Conditions: both partners purified

B1: human CLEC2.Fc fusion protein (Fc fusion)
chain: SVMQRNYLQGENENRTGTLQQLAKRFCQYVVKQSELKGTFKGHKCSPCDTNWRYYGDSCYGFFRHNLTWEESKQYCTDMNATLLKIDNRNIVEYIKARTHLIRWVGLSRQKSNEVWKWEDGSVISENMFEFLEDGKGNMNCAYFHNGKMHPTFCENKHYLMCERKAGMTKVDQLP
notes: also called hCLEC2.Fc; source: 293T cells, transfected
**Q.** Which Kd does the source give for B1 here?
**A.** 7.92 µM
